Reference: PMC10387993, “New pyrimidine-N-β-D-glucosides: synthesis, biological evaluation, and molecular docking investigations” (Turkish Journal of Chemistry, 2023)

The molecules below were run on calf thymus DNA (CT-DNA) (assay: DNA binding study, UV-Visible absorption titration). Details: UV-Vis, 25 μM compound, CT-DNA 6.5–800 μM.
Text: The vast majority of anticancer agents used in pharmaceutical chemistry act on functional macromolecules such as DNA and proteins. Given this well-known fact, the relationship between newly developed anticancer drug candidates and macromolecules should be studied in detail. The interaction of molecules with DNA leads to significant changes in the helical structure of DNA, which can be observed by spectrophotometric techniques. […] Also, the red or blue shift in the absorption bands of the compounds can be an indication of the stability of the compound and the DNA structure. The DNA/BSA binding properties of the new chemicals synthesized by our group were determined using a UV-Vis spectrophotometer. The interactions of these compounds with DNA were as follows. In the spectra obtained by UV-Vis studies of the compounds, a single maximum absorption peak was observed and this peak had no clear bathochromic or hypsochromic effect. […]. […] The physical interactions of our newly synthesized compounds with BSA caused the formation of the spectral bands described below. […]. […]. Kb is the binding constant related to the complex to DNA and can be calculated algebraically from the slope of the line drawn between [DNA] / (ɛa-ɛf) and [DNA]. […].
To find the interaction of the compounds with calf thymus DNA and to calculate the binding constants (Kb) UV–Visible absorption spectroscopy technique was used. A 2.5-mg calf thymus DNA was dissolved in 10.0 mL Tris–HCl buffer (20 mM Tris–HCl, 20 mM NaCl, pH 7.0) and stabile during one week in the refrigerator. […]. After dissolving the calf thymus DNA fibers in Tris–HCl buffer, the purity of this solution was checked from the absorbance ratio A260/A280. […]. These compounds were diluted with Tris–HCl buffer to obtain 25 μM concentrations. Test compounds in the solutions were incubated at room temperature for nearly 30 min before the process. […] Absorption spectra were recorded by using 1-cm-path quartz cuvettes at room temperature. […]

Q: `Cc1ccc(-c2cc(-c3ccncc3)nc(N[C@@H]3O[C@H](CO)[C@@H](O)[C@H](O)[C@H]3O)n2)cc1` [Compound 9, N-[4-(4-methylphenyl)-6-pyridin-4-ylpyrimidin-2-yl]-β-D-glucopyranosylamine] was tested. Which “change of absorption intensity on adding increasing amounts of CT-DNA” value (“change … on adding increasing amounts of CT-DNA” below) did it give?
A: hyperchromic effect

Q: For `Cc1ccccc1-c1cc(-c2ccncc2)nc(N[C@@H]2O[C@H](CO)[C@@H](O)[C@H](O)[C@H]2O)n1` [Compound 3, N-[4-(2-methylphenyl)-6-pyridin-4-ylpyrimidin-2-yl]-β-D-glucopyranosylamine], which “change … on adding increasing amounts of CT-DNA” value is on record?
A: hyperchromic effect

Q: With `CC(=O)OC[C@H]1O[C@@H](Nc2nc(-c3ccc(C)cc3)cc(-c3ccccn3)n2)[C@H](OC(C)=O)[C@@H](OC(C)=O)[C@@H]1OC(C)=O` [Compound 16, 2,3,4,6-tetra-O-acetyl-N-[4-(4-methylphenyl)-6-pyridin-2-ylpyrimidin-2-yl]-β-D-glucopyranosylamine] as the molecule, how does the “change … on adding increasing amounts of CT-DNA” value read?
A: hypochromic effect
